Measured values from several laboratories, pooled; numbers as filed in NIAID ChemDB.

All rows: whole-cell or culture tests; organism: Poliovirus; read-out: EC50

a–b is a range or a potency band.

SMILES	strain or isolate	cell line	result
CC(=O)c1ccc2c(c1)Sc1ccccc1S2	TYPE 3	BSC-1	0.4–2 µg/mL
Cc1ccc(C(=O)CCCCOc2ccc(C3=NCC(C)O3)cc2)s1	TYPE 2	VERO	1.73 µM
Clc1ccc2c(c1)C=C(c1ccccc1)CO2	II (TYPE 2)	HEP-2	<10 µM
CC(O)c1ccc2c(c1)Cc1ccccc1O2	TYPE 3	BSC-1	0.4–2 µg/mL
Cc1ccc(C(=O)CCCCCCOc2ccc(C3=N[C@@H](C)CO3)cc2)s1	TYPE 2	VERO	>25.97 µM
Clc1ccc(C2=Cc3cc(Cl)ccc3OC2)cc1	IB (TYPE 2)	HEP-2	>10 µM
CC(=O)c1cccc(Oc2ccccc2)c1	TYPE 3	BSC-1	0.4–2 µg/mL
C=CCc1nc(C)n2c(=O)[nH]c(=S)[nH]c12	TYPE 1	HeLa	>200 µg/mL
Nc1ccn(C(CF)CCCO)c(=O)n1	TYPE 1	HeLa	>400 µg/mL
Cc1ccc(C(=O)CCCCCCOc2ccc(C3=NCCO3)cc2)s1	TYPE 3	VERO	1.37 µM
COCC1=C[C@@H](n2cnc3c(N)ncnc32)[C@H](O)[C@@H]1O	TYPE 1	HeLa	>200 µg/mL
CC(=O)c1ccc(Oc2ccccc2)cc1	TYPE 3	BSC-1	0.4–2 µg/mL
Nc1ncnc2c1ncn2[C@@H]1OCC(CO)=C1F	-	-	>100 µg/mL
CCCCOc1ccc(-c2snc(SC)c2C#N)cc1	Type 1/Brunhilde	HEP-2	0.3 µM
C=CCc1nc(C)n2c(=O)[nH]c(NC(C)=O)nc12	TYPE 1	HeLa	>400 µg/mL
CC(O)c1ccc2c(c1)S(=O)(=O)c1ccccc1O2	TYPE 3	BSC-1	>10 µg/mL
Clc1ccc2c(c1)CC(c1ccccc1)CO2	II (TYPE 2)	HEP-2	>10 µM
Nc1ncnc2c1ncn2[C@@H]1C=C(CO)[C@@H](O)[C@H]1O	TYPE 1	HeLa	>40 µg/mL
Cc1ccc(C(=O)CCCCOc2ccc(C3=N[C@H](C)CO3)cc2)s1	TYPE 1	VERO	>28.01 µM
Nc1ncnc2c1ncn2CCCC(O)CF	TYPE 1	HeLa	>400 µg/mL
COc1ccc(-c2snc(SC)c2C#N)cc1	Type 1/Brunhilde	HEP-2	0.6 µM
CSCC1=C[C@@H](n2cnc3c(N)ncnc32)[C@H](O)[C@@H]1O	TYPE 1	HeLa	>200 µg/mL
CC(O)c1cccc(Cc2ccccc2)c1	TYPE 3	BSC-1	0.4–2 µg/mL
CSc1nsc(-c2ccccn2)c1C#N	Type 1/Brunhilde	HEP-2	0.1 µM
Cc1ccc(C(=O)CCCCCCOc2ccc(C3=NCCO3)cc2Cl)s1	TYPE 3	VERO	1.55 µM
Cc1nc(CC(O)CO)c2nc[nH]c(=O)n12	TYPE 1	HeLa	>400 µg/mL
Brc1ccc(C2=Cc3ccccc3OC2)cc1	IB (TYPE 2)	HEP-2	>10 µM
CC(O)c1ccc2c(c1)Sc1ccccc1O2	TYPE 3	BSC-1	<0.4 µg/mL
Clc1ccc(C2CCc3ccccc3O2)c(Cl)c1	IA (TYPE 2)	HEP-2	>10 µM
CSc1nsc(SC)c1C#N	Type 1/Brunhilde	HEP-2	>12 µM
Cc1ccc(C(=O)CCCCOc2ccc(C3=NCC(C)O3)cc2Cl)s1	TYPE 3	VERO	1.48 µM
CC(=O)Nc1nc2c(CC(O)CO)nc(C)n2c(=O)[nH]1	TYPE 1	HeLa	>400 µg/mL
CC(=O)c1ccc2c(c1)Sc1cc(C(C)=O)ccc1O2	TYPE 3	BSC-1	>10 µg/mL
Clc1ccc2c(c1)C=C(c1ccc(Br)cc1)CO2	IA (TYPE 2)	HEP-2	>10 µM
CC(O)c1ccc2c(c1)Sc1cc(C(C)O)ccc1O2	TYPE 3	BSC-1	>10 µg/mL
Nc1ncnc2c1ncn2C(CF)CCCO	TYPE 1	HeLa	>400 µg/mL

Blank or dashed fields: not listed here. ECn is the concentration giving n% inhibition of infection, replication or growth. Rows are shuffled and stem from different studies.